Consider 19 molecules from patent US12018066, “Compositions for targeting SARS-CoV-2 spike protein receptor binding domain” (TRIAD NATIONAL SECURITY, dated 2024).

Numbering of substitutions follows the chain as printed.

B1: E01 IgG1 (antibody, V domains shown)
VH: QVQLQQWGAGLLKPSETLSLKCAVYGGSFSGYYWGWIRQSTGKGLEWIGEINRSGSTNYNPSLKSRVTISVDTSKNQFSLKLSSVTAADTAVYYCARGGARYYYGSGSYRSTPRPYYFDYWGQGTLVTVSS
VL: SYELTQPPSVSVAPGETARITCGGDNIGRRHVHWYQQKPGQAPVLVIYDDSDRPSGIPDRFSGSNSGNTATLTIGRVEAGDEADYYCQVWGSSNDPHVFGTGTKLTVL
notes: also called E1
B2: B04 IgG1 (antibody, V domains shown)
VH: QVQLVESGAEVKKPGASVKVSCKASGYTFTRYYMHWVRQAPGQGLEWMGIINPSGGTTSYAQKFQGRVTMTRDTSTSTVYMELSSLRSEDTAVYYCARSFGELTSFDYWGQGTLVTVSS
VL: SYVLTQPPSVSVAPGKTARITCGGNNIGIRSVHWYQQKPGQAPVLVIYYDSDRPSGIPERFSGSKSGNTATLTISRVEAGDEADYYCQVWDSSSDHPVFGGGTKLTVL
B3: F07 IgG1 (antibody, V domains shown)
VH: QVQLVQSGAEVKKPGSSVRVSCKVSGYTFTGYYMHWVRQAPGQGLEWMGIINPSGGSTSYAQKFQGRVTMTRDTSTSTVYMELSSLRSEDTAVYYCARVRVGASDAFDIWGQGTMVTVSS
VL: B2 VL with K16Q, I29S, R30K, I47V, Y49D, K65N, T73I, D95V, P97Y, G101T
B4: G07 IgG1 (antibody, V domains shown)
VH: QVQLVQSGAEVKKPGESLKISCKGSGYSFTSYWIGWVRQMPGKGLEWMGIIYPGDSDIRYSPSFQGQVTISADKSFSSAYLQWSSLKASDTAMYYCARLGATGAFDIWGQGTTVTVSS
VL: QSVLIQPPSASGTPGQRVTISCSGSNSNFGSNSVSWYQQRPGTAPKLLIEGNNQRPSGVPERFSGSKSGTSASLAISGLQSEDEAEYSCASWDDSLNAFVFGPGTKLTVL
B5: G07 scFv (scFv)
scFv: QSVLIQPPSASGTPGQRVTISCSGSNSNFGSNSVSWYQQRPGTAPKLLIEGNNQRPSGVPERFSGSKSGTSASLAISGLQSEDEAEYSCASWDDSLNAFVFGPGTKLTVLSGGSAITSYNVYYTKLSSSGTQVQLVQSGAEVKKPGESLKISCKGSGYSFTSYWIGWVRQMPGKGLEWMGIIYPGDSDIRYSPSFQGQVTISADKSFSSAYLQWSSLKASDTAMYYCARLGATGAFDIWGQGTTVTVSS
B6: F07 scFv (scFv)
scFv: SYVLTQPPSVSVAPGQTARITCGGNNIGSKSVHWYQQKPGQAPVLVVYDDSDRPSGIPERFSGSNSGNTATLIISRVEAGDEADYYCQVWDSSSVHYVFGTGTKLTVLSGGSTITSYNVYYTKLSSSGTQVQLVQSGAEVKKPGSSVRVSCKVSGYTFTGYYMHWVRQAPGQGLEWMGIINPSGGSTSYAQKFQGRVTMTRDTSTSTVYMELSSLRSEDTAVYYCARVRVGASDAFDIWGQGTMVTVSS
B7: H02 scFv (scFv)
scFv: QSVVTQPPSVSAAPGQKVTISCSGSSSNIGNNYVSWYQQLPGTAPKLLIYRDTQRPSGVPDRFSGSKSGTSASLAISGLRSEDEADYYCATWDKSLSGPVFGGGTKVTVLSGGSTITSYNVYYTKLSSSGTQVQLQQSGPGLVKPSQTLSLTCAISGDSVSSNSAAWNWIRQSPSRGLEWLGRTYYRSKWYNDYAVSVKSRIIINPDTSKNQFSLQLNSVTPEDTAVYYCARQDNNPYYGLDVWGQGTTVTVSS
B8: D04 scFv (scFv)
scFv: SYVLTQPPSVSVAPGKTARITCGGNNIGWKSVHWYQQKPGQAPVLVVYNDNDRPSGVPERFSGSNSGNTATLTISRVVAGDEADYYCQVWDSSSDHVLFGGGTKLTVLSGGSTITSYNVYYTKLSSSGTQVQLVQSGAEVKKPGSSVKVSCKASGGTFSSYAISWVRQAPGQGLEWMGGIIPIFGTANYAQKFQGRVTITADESTSTAYMELSSLRSEDTAVYYCARASGRWLQFWHYYGMDVWGQGTTVTVS
B9: B10 scFv (scFv)
scFv: QSVVTQPPSVSGAPGQRVTISCTGSSSNIGSRTVNWYQQLPGTAPKLLIYANNQRPSGVPDRFSGSKSGTSASLAISGLQSEDEADYYCAAWDDSLNGYVFGTGTKLTVLSGGSTITSYNVYYTKLSSSGTQVQLQQSGPGLVKPSQTLSLTCAISGDSVSSNSATWNWIRQSPSRGLEWLGRTYYGSKWHSDYAVSVKSRITINPDTSKNQISLHLNPVTPEDTAVYYCARGRSYAFDIWDQGTMVTVSS
B10: S01 scFv (scFv)
scFv: EIVMTQSPSSLSASVGDSVTITCQASQDISNYLNWYQQKPGKAPKLLIYDASNLETGVPSRFSGGGSGTDFTLTITSLQPEDIATYYCQQYDNFPPTFGPGTKVDIKSGGSTITSYNVYYTKLSSSDTQVQLVESGGGLVKPGGSLRLSCAASGFTVGSNYMSWVRQAPGKGLEWVSVIYSGGSTYYADSVKGRFTISRDNSKNTLYLQMNSLRAEDTAVYYCARGSSGAWYFDLWGRGTLVTVSS
notes: also called 501
B11: D07 scFv (scFv)
scFv: SYELTQPPSVSVAPGETARMTCGGNNIGTKGVHWYQQKPGQAPVLVVYDDSDRPSGIPERFSGSNAGNTATLTISRVEAGDEADYYCQVWDSRSDQYVFGTRTKLTVLSGGSTITSYNVYYTKLSSSGAQVTLKESGPVLVKPTETLTLTCTVSGFSLSNARMGVSWIRQPPGKALEWLAHIFSNGEKSYSTSLKSRLTISKDTSKSQVVLTMTNMDPVDTATYYCARTLDYYDSSGYLVGGAFDIWGQGTMVTVSS
B12: H01 scFv (scFv)
scFv: B11 scFv with S1Q, Y2P, E3G, V12L, E16Q, M20I, T29S, G31S
notes: also called H1
B13: D11 scFv (scFv)
scFv: SYELTQPPSVSVAPGQTARITCGGNNIGSKSVHWYQQKPGQAPVLVVYDDSDRPSGIPERFSGSNSGNTATLTISGTQAMDEADYYCQAWDSSTAYVFGSGTKLTVLSGGSTITSYNVYYTKLSSSGTQVQLEESGGGLVQPGGSLRLSCAASGFTFSNYAMSWVRQAPGKGLEWVSAISGSGGATFHADSVKGRFTISRDNSKNTLYLQMNSLRAEDTAVYYCARRVGYDSSGYYWSDAFDIWGQGTMVTVSS
B14: B04 scFv (scFv)
scFv: SYVLTQPPSVSVAPGKTARITCGGNNIGIRSVHWYQQKPGQAPVLVIYYDSDRPSGIPERFSGSKSGNTATLTISRVEAGDEADYYCQVWDSSSDHPVFGGGTKLTVLSGGSTITSYNVYYTKLSSSGTQVQLVESGAEVKKPGASVKVSCKASGYTFTRYYMHWVRQAPGQGLEWMGIINPSGGTTSYAQKFQGRVTMTRDTSTSTVYMELSSLRSEDTAVYYCARSFGELTSFDYWGQGTLVTVSS
B15: E01 scFv (scFv)
scFv: SYELTQPPSVSVAPGETARITCGGDNIGRRHVHWYQQKPGQAPVLVIYDDSDRPSGIPDRFSGSNSGNTATLTIGRVEAGDEADYYCQVWGSSNDPHVFGTGTKLTVLSGGSTITSNNVYYTKLSSSGTQVQLQQWGAGLLKPSETLSLKCAVYGGSFSGYYWGWIRQSTGKGLEWIGEINRSGSTNYNPSLKSRVTISVDTSKNQFSLKLSSVTAADTAVYYCARGGARYYYGSGSYRSTPRPYYFDYWGQGTLVTVSS
notes: also called E1
B16: R26 scFv (scFv)
scFv: SYELTQPPSVSVAPGQTATITCGGKNIESKSVHWYQQKPGQAPVLVVSDDTDRASGIPERFSGSNSGGAATLTISRVEAGDEADYYCQVWDSPSDHYVFGPGTKLTVLSGGSTITSYNVYYTKLSSSGTQVQLVESGGGVVQPGRSLRLSCAASGFTFSSYAMHWVRQAPGKGLEWVAVISYDGSNKYYADSVKGRFTISRDKAKNTLYLQMNSLRGEDTAVYYCARELSYYDSSGYLRGDWYFDLWGRGTLVTVSS
B17: D10 scFv (scFv)
scFv: QSVVTQPPSASGSPGQTVTISCSGNSANIGGNPVNWYQQLPGTAPKLLIYSNNQRPSGVPDRFSGSKSGISASLAISGLQSEDEADYYCAAWDDSLNGVIFGGGTKLTVLSGGSTITSYNVYYTKLSSSGTQVQLVQSGAEVKKPGESLKISCKGSGYSFTSYWIGWVRQMPGKGLEWMGIIYPGDSDTRYSPSFQGQVTISADKSISTAYLQWSSLKASDTAMYYCARRHSGSYSGAFDIWGQGTMVTVSS
B18: H03 scFv (scFv)
scFv: SYELTQPPSVSVAPGQTARITCGGNNIGSKSVHWYQQKPGQAPVLVIYYDSDRPSGIPERFSGSNSGNTATLTISRVEAGDEADYYCQVWDSSSALYVFGTRTKVTVLSGGSTITSYNVYYTKLSSSGTQVQLVESGGGLVQPGRSLRLSCAASGFTFDDYAMHWVRQAPGKGLEWVSGISWNSGSIGYADSVKGRFTISRDNAKNSLYLQVNSLRAEDTAVYYCARELIVGTTSPQTDAFDIWGQGTMVTVSS
B19: H05 scFv (scFv)
scFv: SYVLTQPPSVSVAPGQTARITCGANNIGRISVHWYQQKPGQAPVLVVYDDSDRPSGIPERFSGSNFGNTATLTISRVEAGDEADYYCQVWDSYSDHVIFGGGTKLTVLSGGSTITSYNVYYTKLSSSGTQVQLVQSGAEVKKPGSSVKVSCKASGGTFSSYAISWVRQAPGQGLEWMGGIIPIFGTANYAQKFQGRVTITADESTSTAYMELSSLRSEDTAVYYCARSIFGVVIISHADGYYYGMDVWGQGTTVTVSS
notes: also called H5

One test deals with SARS-CoV-2 spike protein variant D614G (SARS-CoV-2, UniProt P0DTC2 16-1213).
Consider B1, for which the “fold reduction of detection sensitivity, wild-type vs D614G spike” value is not above 2 fold.

The next test has as its target T1, SARS-CoV spike protein receptor binding domain (RBD1) (SARS-CoV, UniProt P59594 306-527).
B2: the binding result is on record as “no binding (tested: 100 nM)”.

For the molecule B3, the binding result was “no binding (tested: 100 nM)”.

Turning to B1, the binding result is reported as “no binding (tested: 100 nM)”.

Turning to B4, the binding result is on record as “no binding (tested: 100 nM)”.

The target of another test is T1, SARS-CoV spike protein receptor binding …. The source holds these as a separate data set.
On to B5, for which the binding result is reported as “no binding (tested: 20 nM)”.

For B6, the binding result is “no binding (tested: 20 nM)”.

As for B7, the binding result is “no binding (tested: 20 nM)”.

Regarding B8, the binding result is “no binding (tested: 20 nM)”.

For the molecule B9, the binding result is recorded as “no binding (tested: 20 nM)”.

Take B10: the binding result is on record as “no binding (tested: 20 nM)”.

For B11, the binding result is reported as “no binding (tested: 20 nM)”.

Take B12: the binding result is “no binding (tested: 20 nM)”.

In the case of B13, the binding result is recorded as “no binding (tested: 20 nM)”.

On to B14, for which the binding result is “no binding (tested: 20 nM)”.

For the molecule B15, the binding result is reported as “no binding (tested: 20 nM)”.

B16: the binding result was “no binding (tested: 20 nM)”.

B17: the binding result was “no binding (tested: 20 nM)”.

On to B18, for which the binding result was “no binding (tested: 20 nM)”.

Take B19: the binding result was “no binding (tested: 20 nM)”.
